Pooled drug test results. Numbers come from NIAID ChemDB, via PubChem.

Shared fields: growth or infection tests; agent: Herpes simplex virus 1

An empty or dashed field is not shown. ECn: concentration that inhibits the pathogen or its effect by n%. Rows are shuffled and stem from different studies.

compound	measure	read by	cells	strain or isolate	value
Nc1nc2c(ncn2COCCO)c(=O)[nH]1	EC50	plaque count	SIRC	C42	0.05 µM
N#CC1=CN(COCCO)S(=O)(=O)N=C1N	EC50	-	E6SM	F	>400 µg/mL
NC1CCCON2CCc3c([nH]c4ccccc34)[C@H]12	EC50	cytopathic effect	PRK	VMW1837 (TK-/TK+)	2 µg/mL
CCc1cn([C@H]2C[C@H](O)[C@@H](CO)O2)c(=O)[nH]c1=O	EC50	cytopathic effect	PRK	KOS	0.2 µg/mL
Cn1cc(NC=O)cc1C(=O)Nc1cc(C(=O)Nc2cc(C(=O)Nc3ccccc3C(=N)N)n(C)c2)n(C)c1	EC50	plaque count	BSC-1	-	<200 µg/mL
COc1ccc2[nH]c3c(c2c1)CCN1OCSCC(N)[C@@H]31	EC50	cytopathic effect	PRK	KOS	0.045 µg/mL
Nc1ncnc2c1ncn2[C@@H]1O[C@H](CO)[C@@H](O)[C@H]1OP(=O)(O)OC[C@H]1O[C@@H](n2cnc3c(N)ncnc32)[C@H](OP(=O)(O)OC[C@H]2O[C@@H](n3cc(/C=C/Br)c(=O)[nH]c3=O)C[C@@H]2O)[C@@H]1O	EC50	cytopathic effect	PRK	F	0.07 µg/mL
O=c1[nH]cnc2c1cnn2Cc1cn(CCCCO)nn1	EC50	-	E6SM	KOS	>400 µg/mL
CC(=O)OCCOCN1C=CC(=O)N(COCCOC(C)=O)S1(=O)=O	EC50	-	E6SM	McIntyre	>400 µg/mL
Nc1ncnc2c1ncn2[C@@H]1O[C@H](CO)[C@@H](O)[C@@H]1O	EC50	plaque count	VERO	KOS-M1	27.2 µM
O=C1C=CN(COCCO)S(=O)(=O)N1COCCO	EC50	-	E6SM	KOS	>400 µg/mL
COc1cc2c(cc1OC)[C@@H]1C(N)CSCON1CC2	EC50	cytopathic effect	E6SM	KOS	0.1 µg/mL
Nc1ncnc2c1ncn2[C@@H]1O[C@H](CO)[C@@H](O)[C@@H]1O	EC50	plaque count	HFF	P-ACG-R	42 µg/mL
Nc1ccn([C@@H]2O[C@H](CO)[C@@H](O)[C@@H]2O)c(=O)n1	MIC	-	-	-	1.1 µg/mL
COc1ncnc2c1cnn2Cc1cn(CCCCO)nn1	EC50	-	E6SM	B2006 (TK-)	>400 µg/mL
Nc1nc2c(ncn2COC(CO)CO)c(=O)[nH]1	EC50	plaque count	BHK-21	ICI	0.06 µM
Nc1nc2c(ncn2C[C@]2(CO)C[C@H]2CO)c(=O)[nH]1	EC50	plaque count	MRC-5	KOS	0.011 µg/mL
CCCc1cn([C@H]2C[C@H](O)[C@@H](CO)O2)c(=O)[nH]c1=O	EC50	cytopathic effect	HSF	KOS	2.6 µg/mL
CNc1ncnc2c1cnn2Cc1cn(CCCCO)nn1	EC50	-	E6SM	VWM1837	>400 µg/mL
C/C(O)=C1\C(=N)N(COCCO)S(=O)(=O)N=C1N	EC50	-	E6SM	F	>400 µg/mL
CCCc1cn([C@H]2C[C@H](O)[C@@H](COP(=O)(O)O)O2)c(=O)[nH]c1=O	EC50	cytopathic effect	PRK	F	4 µg/mL
CC(CC(=N)N)NC(=O)c1cc(NC(=O)c2cc(NC(=O)c3cc([N+](=O)[O-])cn3C)cn2C)cn1C	EC50	plaque count	BSC-1	-	<200 µg/mL
Nc1nc2c(ncn2CC[C@@H](O)CO)c(=O)[nH]1	EC50	plaque count	VERO	C42	2 µM
Nc1nc(=O)n(C2CC(O)C(CO)O2)cc1CCCl	EC50	cytopathic effect	PRK	F	0.12 µg/mL
OCCCCn1cc(Cn2ncc3c(SCc4ccccc4)ncnc32)nn1	EC50	-	E6SM	KOS	>400 µg/mL
Nc1ccn(C[C@@H](CO)OCP(=O)(O)O)c(=O)n1	EC50	plaque count	HFF	E-115	2.7 µg/mL
Cn1cc(NC=O)cc1C(=O)Nc1cc(C(=O)Nc2cc(C(=O)Nc3ccc(C(=N)N)cc3)n(C)c2)n(C)c1	EC50	plaque count	BSC-1	-	<200 µg/mL
O=c1[nH]c(=O)n([C@H]2C[C@H](O)[C@@H](CO)O2)cc1/C=C/Br	EC50	cytopathic effect	PRK	KOS	0.02 µg/mL
CCCCCCCC/C=C\CCCCCCCOCCOP(=O)(O)CO[C@H](CO)Cn1cnc2c(N)ncnc21	EC50	hybridisation	MRC-5	-	<0.0009 µM
Cn1cc(NC(=O)c2cc([N+](=O)[O-])cn2C)cc1C(=O)Nc1cc(C(=O)Nc2ccccc2C(=N)N)n(C)c1	EC50	plaque count	BSC-1	-	<200 µg/mL
Cn1cc(C(=O)NCc2ccc(Cl)cc2)c(=O)c2cc(CN3CCOCC3)ccc21	EC50	plaque count	VERO	DJL-M1	>20 µM
CC(=O)OCCOCN1C(N)=CC(N)=NS1(=O)=O	EC50	-	E6SM	KOS	>400 µg/mL
Cn1cc(C(=O)NCc2ccc(Cl)cc2)c(=O)c2cc(/C=C\CO)cc(F)c21	EC50	plaque count	VERO	KOS-M1	>20 µM
Nc1ncnc2c1ncn2[C@@H]1O[C@H](CO)[C@@H](O)[C@H]1OP(=O)(O)OC[C@H]1O[C@@H](n2cnc3c(N)ncnc32)[C@H](OP(=O)(O)OC[C@H]2O[C@@H](n3cc(F)c(=O)[nH]c3=O)C[C@@H]2O)[C@@H]1O	EC50	cytopathic effect	PRK	B2006 (TK-)	1 µg/mL
Nc1ncnc2c1ncn2C[C@@H](CO)OCP(=O)(O)O	EC50	cytopathic effect	PRK	B2006 (TK-)	1 µg/mL
O=c1[nH]c(=O)n([C@H]2C[C@H](O)[C@@H](CO)O2)cc1CCCl	EC50	cytopathic effect	PRK	KOS	0.15 µg/mL

A second listing of 5 rows from above:

| compound | measure | read by | cells | strain or isolate | value |
|---|---|---|---|---|---|
| Nc1nc2c(ncn2COC(CO)CO)c(=O)[nH]1 | EC50 | plaque count | BHK-21 | ICI | 0.06 µM |
| Nc1nc2c(ncn2COCCO)c(=O)[nH]1 | EC50 | plaque count | SIRC | C42 | 0.05 µM |
| COc1ccc2[nH]c3c(c2c1)CCN1OCSCC(N)[C@@H]31 | EC50 | cytopathic effect | PRK | KOS | 0.045 µg/mL |
| O=c1[nH]cnc2c1cnn2Cc1cn(CCCCO)nn1 | EC50 | - | E6SM | KOS | >400 µg/mL |
| Cn1cc(C(=O)NCc2ccc(Cl)cc2)c(=O)c2cc(CN3CCOCC3)ccc21 | EC50 | plaque count | VERO | DJL-M1 | >20 µM |